# Share of PSTVd loop 15 variants by leaf site

From the data files of Wu et al. 2024, doi:10.1371/journal.ppat.1012142.

Region: loop 15 of PSTVd (intermediate strain), upper and lower strand joined, each 5' to 3', the first 7 letters being the upper strand, closing pairs included. Wild type: GGAAACCGCUACUAC. Varied positions (N): GGAAACCGNNNNNNC.

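A pool of all variants was put on leaves of three Nicotiana benthamiana plants. Samples came from the inoculated region at 5 days, the leaf margin at 10 and upper systemic leaves at 12.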

Numbers give reads per thousand; 0 = not seen among the reads, higher = more abundant. Each value is the mean of three plants. "Pool" is the share in the plasmid pool used as inoculum, on the same scale. The inoculated region was read from the minus strand, the other sites from the plus strand. IR is the inoculated region, LM the leaf margin, Sys the systemic leaves. Samples held 43,870 to 66,106 reads, so the smallest values rest on one or two reads.

GGAAACCGUAGGUCC (pool 0.224): IR 0.0547; LM 0.0200; Sys 0.
GGAAACCGCCCACCC (pool 0.288): IR 0.104; LM 0.0121; Sys 0.
GGAAACCGAGAUGCC (pool 0.160): IR 0.108; LM 0.0202; Sys 0.
GGAAACCGCAGACCC (pool 0.208): IR 0.0643; LM 0.0141; Sys 0.00537.
GGAAACCGGCGUACC (pool 0.192): IR 0.106; LM 0.00742; Sys 0.
GGAAACCGAAACAUC (pool 0.176): IR 0.114; LM 0.00668; Sys 0.00537.
GGAAACCGUGGUGAC (pool 0.224): IR 0.0757; LM 0.0121; Sys 0.
GGAAACCGGUUCAGC (pool 0.272): IR 0.132; LM 0.00539; Sys 0.
GGAAACCGAAUGUCC (pool 0.192): IR 0.0622; LM 0.00742; Sys 0.
GGAAACCGCCUACAC (pool 0.112): IR 0.124; LM 0; Sys 0.
GGAAACCGGACCUGC (pool 0.128): IR 0.117; LM 0.00742; Sys 0.
GGAAACCGAAUUUUC (pool 0.272): IR 0.114; LM 0; Sys 0.00537.
GGAAACCGACAACAC (pool 0.208): IR 0.349; LM 0.160; Sys 0.0610.
GGAAACCGCAGAACC (pool 0.368): IR 0.0407; LM 0.00742; Sys 0.
GGAAACCGCGUAUGC (pool 0.208): IR 0.0686; LM 0; Sys 0.
GGAAACCGAUUAAGC (pool 0.272): IR 0.215; LM 0.0187; Sys 0.0107.
GGAAACCGUGCUGCC (pool 0.240): IR 0.110; LM 0.00668; Sys 0.
GGAAACCGCGAACAC (pool 0.272): IR 0.474; LM 0.0972; Sys 0.0976.
GGAAACCGGAUAUGC (pool 0.272): IR 0.0498; LM 0; Sys 0.
GGAAACCGAGAAUUC (pool 0.128): IR 0.313; LM 0.0798; Sys 0.0613.
GGAAACCGUAGGUUC (pool 0.160): IR 0.317; LM 0.120; Sys 0.0619.
GGAAACCGACUCAAC (pool 0.128): IR 0.0885; LM 0.0254; Sys 0.
GGAAACCGCAGGCUC (pool 0.336): IR 0.0866; LM 0.0442; Sys 0.
GGAAACCGAUGUAUC (pool 0.288): IR 0.115; LM 0.0175; Sys 0.
GGAAACCGCUAUUCC (pool 0.224): IR 0.274; LM 0.0993; Sys 0.00537.
GGAAACCGACCUUUC (pool 0.192): IR 0.325; LM 0; Sys 0.
GGAAACCGCAGGGCC (pool 0.160): IR 0.141; LM 0.00668; Sys 0.
GGAAACCGUGGCGUC (pool 0.224): IR 0.0904; LM 0.0128; Sys 0.00537.
GGAAACCGUCCUCGC (pool 0.256): IR 0.104; LM 0; Sys 0.0107.
GGAAACCGUACCGAC (pool 0.240): IR 0.125; LM 0.0108; Sys 0.
GGAAACCGUAUGUAC (pool 0.240): IR 0.338; LM 0.141; Sys 0.0582.
GGAAACCGAGAUAUC (pool 0.160): IR 0.355; LM 0.107; Sys 0.0161.
GGAAACCGUUCUUGC (pool 0.224): IR 0.365; LM 0.109; Sys 0.0107.
GGAAACCGAACCGCC (pool 0.144): IR 0.118; LM 0.0182; Sys 0.
GGAAACCGUCUGUAC (pool 0.192): IR 0.277; LM 0.143; Sys 0.0255.
GGAAACCGCUGAGGC (pool 0.192): IR 0.0547; LM 0.0208; Sys 0.
GGAAACCGUCACUUC (pool 0.224): IR 0.300; LM 0.120; Sys 0.0511.
GGAAACCGCCCCAUC (pool 0.208): IR 0.102; LM 0.0200; Sys 0.
GGAAACCGUUUGGCC (pool 0.224): IR 0.0831; LM 0.0121; Sys 0.

For reference, wild type rose from 33.9 per thousand in the pool to 202, 200, 159 (inoculated region), 724, 746, 710 (leaf margin) and 856, 883, 880 (systemic leaves). The authors trace changes outside the varied positions to PCR and sequencing errors or to mutation in the plant; presence does not show that a variant is infectious alone.